Results deposited as PubChem BioAssay AID1259414 (Drosophila RNAi Screening Center, 2018)

- Aim: 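Fly genes that alter Wolbachia amount inside host cells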 (primary screen)
- Cell system: Drosophila JW18 cells infected with Wolbachia
- Knock-down reagent: long dsRNA against Drosophila genes, 0.25 µg dsRNA per well of a 384-well plate
- Duration: 5 days
- Treatment: cells persistently infected with Wolbachia before knock-down; no added drug
- Read-out: 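Imaged fluorescence in situ signal for Wolbachia 23S rRNA per DAPI-counted host cell, given as a robust z-score within each plate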
- Direction: Wolbachia per cell robust z: higher = more Wolbachia per host cell than the plate typical
- Call rule: 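Hit when robust z is 1.5 or more, or -1.5 or less, in at least two of three replicates; excludes dsRNAs with several or no targets, genes not expressed in JW18 and well A1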
The deposit covers about 24,000 reagents; this is an unselected part of those with a known target gene and a result. Over the whole deposit, about 1,210 (5%) were called active. 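Inactive calls also include excluded dsRNAs with several or no targets, genes unexpressed in JW18, and well A1, regardless of score.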 A plus sign joins genes that one reagent is predicted to hit. No sequences are given here.

no.	Gene	DRSC id	Wolbachia per cell robust z, rep 1	Wolbachia per cell robust z, rep 2	Wolbachia per cell robust z, rep 3	call
1	Jra (Jun-related antigen)	DRSC07447	-0.109	0.708	-1.3	inactive
2	Jra (Jun-related antigen)	DRSC27606	-0.127	-1.3	0.823	inactive
3	Cyt-c1 (Cytochrome c1)	DRSC10447	1.26	0.881	-0.384	inactive
4	Cyt-c1 (Cytochrome c1)	DRSC29221	-0.719	-1.71	-1.82	active
5	gfzf (GST-containing FLYWCH zinc-finger protein)	DRSC12506	-0.365	0.962	-0.334	inactive
6	gfzf (GST-containing FLYWCH zinc-finger protein)	DRSC21874	0.237	0.166	0.12	inactive
7	CG14452 + CG12546	DRSC29979	0.497	-0.639	-2.77	inactive
8	CG11983	DRSC14458	0.33	0.542	0.414	inactive
9	CG44005 + CG44004	DRSC36534	-2.93	0.162	0.488	inactive
10	CG11791	DRSC14391	-0.357	-1.01	0.37	inactive
11	CG11791	DRSC29499	-1.96	0.598	1.02	inactive
12	CG6495	DRSC01993	0.328	0.567	0.45	inactive
13	CG6495	DRSC29128	0.479	0.381	-0.613	inactive
14	CG11307	DRSC11648	1.27	0.805	-2.75	inactive
15	CG11307	DRSC26602	-1.78	0.49	-1.47	inactive
16	alpha-Est6 (alpha-Esterase-6)	DRSC12618	0.309	0.257	-0.983	inactive
17	ana3 (anastral spindle 3)	DRSC06289	-1.14	-0.825	-0.13	inactive
18	ana3 (anastral spindle 3)	DRSC28049	0.184	0.216	1.04	inactive
19	Obp99d (Odorant-binding protein 99d)	DRSC15046	-1.54	0.52	0.632	inactive
20	Prat (Phosphoribosylamidotransferase)	DRSC16797	-0.145	-1.99	0.507	inactive
21	Ocho	DRSC11239	0.47	0.75	0.568	inactive
22	Ocho	DRSC28920	0.204	-0.237	-0.307	inactive
23	CG42512 + CG32573	DRSC19906	0.222	0.107	1.64	inactive
24	CG42512 + CG32573	DRSC22782	-0.638	0.6	0.301	inactive
25	Prp3 (Precursor RNA processing 3)	DRSC10912	0.642	1.17	-0.125	inactive
26	Klp3A (Kinesin-like protein at 3A)	DRSC18676	-0.308	-0.426	-0.24	inactive
27	Klp3A (Kinesin-like protein at 3A)	DRSC21625	0.155	0.526	0.153	inactive
28	CG3860	DRSC04425	0.273	-0.533	0.419	inactive
29	CG6813	DRSC16122	0.022	-0.364	-0.0376	inactive
30	CG3815	DRSC18324	-0.888	0.774	-0.384	inactive
31	CG3815	DRSC25830	-0.476	-0.296	-0.0435	inactive
32	CG3815	DRSC38992	-1.84	-2.99	-1.19	active
33	CG7182	DRSC10780	1.75	-0.409	0.0677	inactive
34	CG7182	DRSC24776	0.594	0.819	0.425	inactive
35	Saf6 (SAGA factor-like TAF6)	DRSC00633	-3.04	0.679	1.15	inactive
36	Fancl	DRSC14550	-0.0985	-5.46	-0.168	inactive
37	Rcd-1 (Required for cell differentiation 1)	DRSC19569	0.208	0.706	0.864	inactive
38	Atg9 (Autophagy-related 9)	DRSC06848	-0.973	-0.112	-1.4	inactive
39	Obp51a (Odorant-binding protein 51a)	DRSC22412	0.199	0.733	0.383	inactive
40	yip2 (yippee interacting protein 2)	DRSC03640	0.152	1.68	0.641	inactive
41	CG9997	DRSC16591	0.581	-0.925	-0.0323	inactive
42	CG9997	DRSC29613	-0.797	-1.29	-0.841	inactive
43	CG14963	DRSC08422	-0.272	0.733	-0.452	inactive
44	CR14798 (pseudo)	DRSC17956	-4.28	0.0744	-0.297	inactive
45	CCKLR-17D1 (Cholecystokinin-like receptor at 17D1)	DRSC20011	0.431	0.192	-0.252	inactive
46	CCKLR-17D1 (Cholecystokinin-like receptor at 17D1)	DRSC20012	-1.62	-1.04	-0.3	inactive
47	CCKLR-17D1 (Cholecystokinin-like receptor at 17D1)	DRSC28081	0.737	1.39	1.22	inactive
48	TfIIS (RNA polymerase II elongation factor)	DRSC03455	-0.203	1.04	-0.235	inactive
49	TfIIS (RNA polymerase II elongation factor)	DRSC24533	1.2	0.0641	0.265	inactive
50	CG2260	DRSC18223	-0.346	1.4	-1.04	inactive
51	CG2260	DRSC28536	0.675	1.37	0.905	inactive
52	Pdhb (Pyruvate dehydrogenase E1 beta subunit)	DRSC14420	1.29	-0.437	-1.76	inactive
53	Pdhb (Pyruvate dehydrogenase E1 beta subunit)	DRSC29695	0.638	1.61	-5.23	inactive
54	Pdhb (Pyruvate dehydrogenase E1 beta subunit)	DRSC39078	-2.5	-1.28	-0.878	inactive
55	CG31668	DRSC22584	0.472	0.408	-0.0182	inactive
56	CG7497	DRSC10857	-2.05	-0.491	-0.705	inactive
57	CG7497	DRSC28188	-0.737	0.232	1.78	inactive
58	CG14186	DRSC10185	-1.83	-0.274	-0.086	inactive
59	CG14186	DRSC28085	-0.396	-0.98	-0.391	inactive
60	Aldh-III (Aldehyde dehydrogenase type III)	DRSC06047	0.308	-3.7	-3.26	active
61	Aldh-III (Aldehyde dehydrogenase type III)	DRSC26578	-2.28	-1.82	-1.76	active
62	NimB2 (Nimrod B2)	DRSC22645	-2.5	0.649	-0.982	inactive
63	GatB (Glutamyl-tRNA amidotransferase, subunit B)	DRSC15807	-0.743	-1.04	-0.101	inactive
64	GatB (Glutamyl-tRNA amidotransferase, subunit B)	DRSC27887	0.343	-0.22	-1.43	inactive
65	CG34056	DRSC08374	-2.65	-2.09	-0.543	active
66	CG34056	DRSC41481	-0.925	-0.999	-0.964	inactive
67	dsx-c73A (doublesex cognate 73A)	DRSC09435	-0.884	-4.98	-0.42	inactive
68	dsx-c73A (doublesex cognate 73A)	DRSC09914	0.467	-0.156	0.601	inactive
69	dsx-c73A (doublesex cognate 73A)	DRSC10429	-4.03	-0.426	0.178	inactive

Taken from above.
Under “Wolbachia per cell robust z, rep 2”, TfIIS (RNA polymerase II elongation factor) [DRSC03455] reads 1.04
Entry for CG42512 + CG32573 [DRSC19906] in “call”: inactive
Under “Wolbachia per cell robust z, rep 2”, CG14186 [DRSC10185] has -0.274
CG3815 [DRSC25830], Wolbachia per cell robust z, rep 2 → -0.296
For “Wolbachia per cell robust z, rep 1”, CG11791 [DRSC29499] reads -1.96
Value for Prat (Phosphoribosylamidotransferase) [DRSC16797] in “call”: inactive
